In publication PMC2777304 (PLoS Pathogens, 2009):
Counter-ions that a name gives are not always drawn.

Assay: Quinacrine concentration in tissues by quantitative LC/MS/MS
Conditions: 40 mg/kg/day oral, 75 dpi

Question: What does the source list for `CCN(CC)CCCC(C)Nc1c2ccc(Cl)cc2nc2ccc(OC)cc12` (centres unmarked) [quinacrine, Quinacrine dihydrochloride]?
Answer: Concentration of quinacrine in the brain (FVB[60–90] mice): 1 µM; Concentration of quinacrine in the brain (MDR^0/0[60–90] mice): 100 µM
